Results of unrelated studies side by side (data: NIAID ChemDB).

All rows: whole-cell or culture tests; species: HIV-1; endpoint: EC50

ECn is the concentration giving n% inhibition of infection, replication or growth.

smiles | cells | method | strain | mutations | setting | result
Cc1ccnc2c1NC(=O)c1cccnc1N2C1CC1 | CEM | cytopathic effect | C-1 (RT-K101E) | RT-K101E |  | 0.0051 µg/mL
CC(C)=CCN1Cc2cc(Cl)cc3[nH]c(=S)n(c23)C[C@@H]1C | PBMC |  | BCF08 | RT-A98G Y181C |  | >6.25 µM
COc1ccccc1C(=O)CC1(O)C(=O)Nc2ccc(Cl)cc21 | C8166 | cytopathic effect / syncytia | IIIB |  |  | 0.09 µM
Cc1cn([C@H]2C[C@H](N=[N+]=[N-])[C@@H](CO)O2)c(=O)[nH]c1=O | PBMC |  | LAI |  |  | <0.01 µM
CC1CNC(=O)c2ccccc2SSc2ccccc2C(=O)N1 | C8166 | ELISA | MN |  |  | 0.05 µg/mL
[Li+] | MT-4 | antigen | GUN1 |  |  | >1000 µg/mL
CC(C)CCC[C@@H](C)[C@H]1CC[C@H]2[C@@H]3CC[C@H]4C[C@@H](CCC=C(c5cc(Cl)c(O)c(C(=O)O)c5)c5cc(Cl)c(O)c(C(=O)O)c5)CC[C@]4(C)[C@H]3CC[C@]12C | U-937 | p24 / RT activity | RF |  |  | 7.4 µM
Cc1ccnc2c1NC(=O)c1cccnc1N2C1CC1 | PBMC |  | BCF06 | RT-A98G K103R |  | 0.12 µM
Cc1cn([C@H]2C=C[C@@H](CO)O2)c(=O)[nH]c1=O | MT-4 | cytopathic effect / p24 / trypan blue | IIIB |  |  | 0.22 µM
CCN[C@H]1CO[C@@H]2OCC[C@H](OC(=O)N[C@@H](Cc3ccccc3)[C@H](O)CN(CC(C)C)S(=O)(=O)c3ccc4nc(NC5CC5)sc4c3)[C@@H]21 | MT-4 | p24 / luminescence | NL4-3 | L10I M46L I54V V82A |  | 0.0035 µM
CC[C@H](C)[C@@H](C(=O)O)n1sc2ccccc2c1=O | Macrophage | p24 / RT activity | BaL |  |  | 6.5 µM
Cc1cc(C#Cc2cccc(N)c2)cc(C)c1Oc1ccnc(Nc2ccc(C#N)cc2)n1 | MT-4 | MTT | IIIB |  |  | 0.013 µM
Cc1cn([C@H]2C[C@H](N=[N+]=[N-])[C@@H](CO)O2)c(=O)[nH]c1=O | Macrophage | p24 / RT activity | ADA |  |  | 0.002 µM
O=C(CC1(O)C(=O)Nc2ccc(Cl)cc21)c1cccc(Cl)c1 | C8166 | cytopathic effect / syncytia | IIIB |  |  | 43.31 µM
Cc1cn([C@H]2C[C@H](N=[N+]=[N-])[C@@H](CO)O2)c(=O)[nH]c1=O | CEM | cytopathic effect | Q-1 (RT T139K Y181C Y188D/Y) | RT-T139K Y181C Y188D/Y |  | 0.046 µM
CC(C)CN(C[C@@H](O)[C@H](Cc1ccccc1)NC(=O)O[C@H]1CCOC1)S(=O)(=O)c1ccc(N)cc1 | MT-4 | p24 / luminescence | NL4-3 | L23I E34Q K43I M46I I50L G51A L63P A71V V82A T91A |  | 0.39 µM
Cc1cc(C#Cc2ccc(C(=O)O)cc2)cc(C)c1Oc1ccnc(Nc2ccc(C#N)cc2)n1 | MT-4 | MTT | IIIB | Y181C |  | 0.45 µM
O=C(CC1(O)C(=O)Nc2ccc(Cl)cc21)c1ccc(Cl)c(Cl)c1 | C8166 | cytopathic effect / syncytia | IIIB |  |  | 28.47 µM
Nc1ccn([C@H]2CC[C@@H](CO)O2)c(=O)n1 | MT-2 | XTT | HXB2D (RT-K65R) | RT-K65R |  | >30 µM
CN[C@H]1CO[C@@H]2OCC[C@H](OC(=O)N[C@@H](Cc3ccccc3)[C@H](O)CN(CC(C)C)S(=O)(=O)c3ccc4nc(NC5CC5)sc4c3)[C@@H]21 | MT-4 | p24 / luminescence | NL4-3 |  |  | 0.0035 µM
COc1ccc(S(=O)(=O)N(CC(C)C)C[C@@H](O)[C@H](Cc2ccccc2)NC(=O)O[C@H]2CO[C@H]3O[C@@H]4OCC[C@@H]4[C@H]32)cc1 | MT-4 | p24 / luminescence | NL4-3 | A71T |  | 0.0014 µM
Nc1nc(=O)n([C@@H]2CS[C@H](CO)O2)cc1F | MT-2 | recombinant virus assay | Clinical isolate | M41L/D67N/K70R/K103N/L210W/T215F/K219Q |  | 0.516 µM
Cc1ccc(/C=C/c2cc(C)c(Oc3ccnc(Nc4ccc(C#N)cc4)n3)c(C)c2)cc1 | MT-4 | MTT | IIIB | RES056 |  | >8.51 µM
Cc1cc(C)c(Nc2ccnc(Nc3ccc(C#N)cc3)n2)c(C)c1 | PBMC | absorbance | 93TH051 |  |  | 0.0037 µM
O=C(C(=O)N1CCN(C2=Nc3ccccc3Oc3ccc(Cl)cc32)CC1)c1c[nH]c2c(Br)ccc(F)c12 | MT-2 | luciferase / reporter gene / single cycle | LAI |  |  | >0.5 µM
Cc1cn([C@H]2C[C@H](N=[N+]=[N-])[C@@H](CO)O2)c(=O)[nH]c1=O | MT-2 | p24 / luciferase | LAI |  |  | 0.23 µg/mL
CC(=O)N(O)CCCCCNC(=O)CCC(=O)N(O)CCCCCNC(=O)CCC(=O)N(O)CCCCCN | PBLC | XTT / p24 | BaL |  |  | <10 µM
Cc1cn([C@H]2C[C@H](N=[N+]=[N-])[C@@H](CO)O2)c(=O)[nH]c1=O | MT-4 | cytopathic effect / trypan blue | A018 |  |  | 0.14 µM
CC(C)=CCN1c2cc(Cl)cc3[nH]c(=S)n(c23)C[C@@H]1C | MT-4 |  |  | RT-L74V L100I |  | <0.4 µM
Cc1cccc(C(=O)CC2(O)C(=O)Nc3ccc(Br)cc32)c1 | C8166 | cytopathic effect / syncytia | IIIB |  |  | 5.71 µM
CCc1c(C(=O)c2cc(C)cc(C)c2)n(CC2CC=CC2)c(=O)[nH]c1=O | PBMC | cytopathic effect / XTT | ROJO |  | clinical isolate | 0.008 µM
C#C[C@@]1(CO)C=C[C@H](n2cc(C)c(=O)[nH]c2=O)O1 | MAGI (CCR5) + MAGI | β-galactosidase | A012B WT |  |  | 0.49 µM
Cc1ccnc2c1NC(=O)c1cccnc1N2C1CC1 | MAGI | β-galactosidase | NNRTI-resistant (RT K103N P225H) | RT-K103N P225H |  | 9.6 µM
O=c1[nH]cnc2c1ncn2[C@H]1CC[C@@H](CO)O1 | MAGI (CCR5) + MAGI | β-galactosidase | HXB2 | RT-A62V V75I F77L F116Y Q151M |  | 52 µM
Nc1nc(=O)n([C@@H]2CS[C@H](CO)O2)cc1F | TZM-gfp | GFP | NL4-3 | M184V |  | >100 µM
COC(=O)N[C@H](C(=O)N[C@@H](Cc1ccccc1)[C@@H](O)CN(Cc1ccc(-c2ccccn2)cc1)NC(=O)[C@@H](NC(=O)OC)C(C)(C)C)C(C)(C)C | PBMC | p24 / luciferase | ERS104pre |  |  | 0.0026 µg/mL
CC(C)(C)NC(=O)[C@@H]1C[C@@H]2CCCC[C@@H]2CN1C[C@H](O)[C@H](Cc1ccccc1)NC(=O)[C@H](CC(N)=O)NC(=O)c1ccc2ccccc2n1 | MT-4 | p24 / luminescence | NL4-3 |  |  | 0.019 µM
COC(=O)N[C@H](C(=O)N[C@@H](Cc1ccccc1)[C@@H](O)CN(Cc1ccc(-c2ccccn2)cc1)NC(=O)[C@@H](NC(=O)OC)C(C)(C)C)C(C)(C)C | MT-4 | p24 / luminescence | NL4-3 | L10F V32I M46I I54M A71V I84V |  | 0.371 µM
O=c1[nH]cnc2c1ncn2[C@H]1CC[C@@H](CO)O1 | HT4 + HT4 LacZ-1 | plaque count | HXB2 |  |  | 1.4 µM
CC(=O)Nc1cccc(C#Cc2cc(C)c(Oc3ccnc(Nc4ccc(C#N)cc4)n3)c(C)c2)c1 | MT-4 | MTT | IIIB | Y188L |  | >0.844 µM
COc1ccc(-n2cncn2)c2[nH]cc(C(=O)C(=O)N3CCN(C4=Nc5ccccc5Oc5ccc(Cl)cc54)CC3)c12 | MT-2 | luciferase / reporter gene / single cycle | LAI |  |  | <0.5 µM
CCC(=O)c1ccc(F)c([C@@H]2C[C@@H]2NC(=O)Nc2ccc(C#N)cn2)c1O | PBMC | absorbance | 92BR014 |  |  | 0.0007 µM
COC(=O)N[C@H](C(=O)N[C@@H](Cc1ccccc1)[C@@H](O)CN(Cc1ccc(-c2ccccn2)cc1)NC(=O)[C@@H](NC(=O)OC)C(C)(C)C)C(C)(C)C | MT-4 | p24 / luminescence | NL4-3 | L10F V32I L33F M46L I54M A71V |  | 0.0037 µM
OC[C@@H]1[C@@H](O)[C@H](O)[C@@H](O)CN1C/C=C/c1ccccc1 | MOLT-4 | cell fusion | IIIB |  |  | <2 µg/mL
Cc1cc(C#Cc2ccccc2)cc(C)c1Oc1ccnc(Nc2ccc(C#N)cc2)n1 | MT-4 | MTT | IIIB |  |  | 0.038 µM
O=c1[nH]cnc2c1ncn2[C@H]1CC[C@@H](CO)O1 | MT-2 | cytopathic effect / XTT / RT activity | IIIB |  | 5 d | 6.5 µM
CC[C@H]1C(=O)Nc2ccc(F)cc2N1C(=O)OC(C)C | CEM | cytopathic effect | E-2 (RT-V106A) | RT-V106A |  | 0.01 µg/mL
Cc1cn([C@H]2C[C@H](N=[N+]=[N-])[C@@H](CO)O2)c(=O)[nH]c1=O | HeLa | luciferase | NRTI resistant | RT-T69K K70G V75I F77L F116Y Q151M M184V |  | 4.5 µM
Cc1ccnc2c1NC(=O)c1cccnc1N2C1CC1 | CEM + CEM-SS | cytopathic effect / XTT | NL4-3 (RT K101E) | RT-K101E |  | 0.3 µM
CN[C@H]1CO[C@@H]2OCC[C@H](OC(=O)N[C@@H](Cc3cccc(OC)c3)[C@H](O)CN(CC(C)C)S(=O)(=O)c3ccc4nc(NC(C)C)sc4c3)[C@@H]21 | MT-4 | p24 / luminescence | NL4-3 | L10I I54V K20R L24I V32I L33F M36I M46I I54M L63P K70Q V82I I84V L89M |  | 0.061 µM
COC(=O)N[C@H](C(=O)N[C@@H](Cc1ccccc1)[C@@H](O)CN(Cc1ccc(-c2ccccn2)cc1)NC(=O)[C@@H](NC(=O)OC)C(C)(C)C)C(C)(C)C | MT-4 | p24 / luminescence | NL4-3 | L23I E34Q K43I M46I I50L G51A L63P A71V V82A T91A |  | >1 µM
Cc1cn([C@H]2C[C@H](N=[N+]=[N-])[C@@H](CO)O2)c(=O)[nH]c1=O | MT-4 | MTT | IIIB | E138K |  | 0.007 µM
N#Cc1cc2[nH]c3ccccc3c2n(-c2ccc([N+](=O)[O-])cc2)c1=O | HeLa | luciferase | Recombinant | RT-A62T V118I M184V |  | 1.11 µM
CCCc1cc(=O)oc2c3c(c4c(c12)OC(C)(C)C=C4)O[C@@H](C)[C@H](C)[C@@H]3O | CEM + CEM-SS | cytopathic effect / XTT | UC040-R (RT-Y181C) | RT-Y181C |  | <0.08 µM
Cc1cc(C#Cc2cccc(N)c2)cc(C)c1Oc1ccnc(NC2CCN(Cc3ccc(C#N)cc3)CC2)n1 | MT-4 | MTT | IIIB | K103N |  | >0.261 µM
Nc1nc2c(ncn2[C@H]2C=C[C@@H](CO)C2)c(=O)[nH]1 | MT-2 | cytopathic effect / XTT / RT activity | IIIB |  | 5 d | 2.3 µM
COc1ccc(-n2cnc(C)n2)c2[nH]cc(C(=O)C(=O)N3CCN(C4=Nc5ccccc5Oc5ccc(Cl)cc54)CC3)c12 | MT-2 | luciferase / reporter gene / single cycle | LAI |  |  | 0.00183 µM
CCN[C@H]1CO[C@@H]2OCC[C@H](OC(=O)N[C@@H](Cc3cccc(OC)c3)[C@H](O)CN(CC(C)C)S(=O)(=O)c3ccc4nc(NC(C)C)sc4c3)[C@@H]21 | MT-4 | p24 / luminescence | NL4-3 | L10I M46L I54V V82A |  | 0.0044 µM
Cc1cn([C@H]2C=C[C@@H](CO)O2)c(=O)[nH]c1=O | MT-2 | recombinant virus assay | Clinical isolate | M41L/A98G/K103N/M184V/L210W/T215Y |  | 1.584 µM
O=C(CC1(O)C(=O)Nc2ccc(Br)cc21)c1ccc(F)cc1 | C8166 | cytopathic effect / syncytia | IIIB |  |  | 45.47 µM
CO[P@](=O)(c1cc(C)cc(/C=C/C#N)c1)c1c(C(N)=O)[nH]c2ccc(Cl)cc12 |  |  | BH10 |  |  | <0.0018 µM
Cc1occc1C(=S)Nc1ccc(Cl)c(/C=N/OC(C)(C)C)c1 | CEM + CEM-SS | cytopathic effect / XTT | UC040-R (RT-Y181C) | RT-Y181C |  | 0.8 µM
Cn1c2ccccc2c2c1cc(C#N)c(=O)n2-c1ccc([N+](=O)[O-])cc1 | HeLa | luciferase | NRTI resistant | RT-M41L E44D D67N T69D V118I M184V L210W T215Y |  | 0.304 µM
C/C=C/CSc1cc(NC(=S)c2ccsc2C)ccc1Cl | CEM + CEM-SS | cytopathic effect / XTT | UC781-R (RT-Y181C) | RT-Y181C |  | 1.6 µM
O=C(CC1(O)C(=O)Nc2ccc(Cl)cc21)c1cccc(Br)c1 | C8166 | cytopathic effect / syncytia | IIIB |  |  | 25.87 µM

6 of the rows above, restated:

smiles | cells | method | strain | mutations | setting | result
COc1ccccc1C(=O)CC1(O)C(=O)Nc2ccc(Cl)cc21 | C8166 | cytopathic effect / syncytia | IIIB |  |  | 0.09 µM
CCc1c(C(=O)c2cc(C)cc(C)c2)n(CC2CC=CC2)c(=O)[nH]c1=O | PBMC | cytopathic effect / XTT | ROJO |  | clinical isolate | 0.008 µM
COC(=O)N[C@H](C(=O)N[C@@H](Cc1ccccc1)[C@@H](O)CN(Cc1ccc(-c2ccccn2)cc1)NC(=O)[C@@H](NC(=O)OC)C(C)(C)C)C(C)(C)C | MT-4 | p24 / luminescence | NL4-3 | L10F V32I L33F M46L I54M A71V |  | 0.0037 µM
C/C=C/CSc1cc(NC(=S)c2ccsc2C)ccc1Cl | CEM + CEM-SS | cytopathic effect / XTT | UC781-R (RT-Y181C) | RT-Y181C |  | 1.6 µM
Nc1nc2c(ncn2[C@H]2C=C[C@@H](CO)C2)c(=O)[nH]1 | MT-2 | cytopathic effect / XTT / RT activity | IIIB |  | 5 d | 2.3 µM
CN[C@H]1CO[C@@H]2OCC[C@H](OC(=O)N[C@@H](Cc3cccc(OC)c3)[C@H](O)CN(CC(C)C)S(=O)(=O)c3ccc4nc(NC(C)C)sc4c3)[C@@H]21 | MT-4 | p24 / luminescence | NL4-3 | L10I I54V K20R L24I V32I L33F M36I M46I I54M L63P K70Q V82I I84V L89M |  | 0.061 µM

Lines come from different laboratories, so protocols vary. An empty or dashed field is not shown.